Test results as given in paper PMC9701186 (Nature Communications, 2022).

B1: human chimeric 13G8 mAb (c13G8) (antibody, V domains shown)
VH: DVQLQQSGPGLVAPSQSLSITCTVSGFSLTNYGIHWVRQPPGKGLEWLGVIWAGGYTKYNSALMSRLSMSKDNSKSQVFLKMNSLQTDDTAMYYCARDEVRRDYYAMDHWGQGTTVTVSS
VL: DIQMTQSPAILSASPGEKVTMTCWASSGVSYMHWYQQKPGSSPKPWIFATSNLASGVPARFSGSGSGTSYSLTISRVEAEDAATYYCQQWSFNPLTFGAGTKLEIK
notes: copies: 2 + 2
B2: human chimeric 13G8 mAb (c13G8) (antibody, V domains shown)
VH: B1 VH
VL: B1 VL
notes: source: Expi293 cells, purified (mAb Select Sure column)

What was measured:
CCHFV strain Afg-09 GP38 = CCHFV strain Afg-09 GP38 (CCHFV, strain Afg09, UniProt E5FEZ4, strain); assay: BLI
[1] = biological target: CCHFV strain Kosovo/Hoti GP38 (CCHFV, strain Kosovo/Hoti, strain); assay: BLI
CCHFV Kosovo/Hoti GP38 = CCHFV Kosovo/Hoti GP38 (CCHFV, strain Kosovo/Hoti, strain); assay: SPR

| Binder | Kd (CCHFV strain Afg-09 GP38) | Kd [1] | Kd (CCHFV Kosovo/Hoti GP38) |
| --- | --- | --- | --- |
| B1 | 0.492 nM | 0.557 nM |  |
| B2 |  |  | 1.7 nM |
